Anti-infective test results gathered from many reports (values: NIAID ChemDB through PubChem).

Common to all: toxicity to cultured cells; cells: VERO; endpoint: CC50

Blank or dashed fields: not listed here. Lines come from different laboratories, so protocols vary. CCn: concentration that lowers growth or viability of the cells by n%.

| structure | read by | result |
|---|---|---|
| CSc1nsc(-c2cccc3ccccc23)c1C#N | - | 4 µM |
| C[C@H]1C/C=C/C(O)C/C=C/C(=O)Cc2cccc(O)c2C(=O)O1 | - | 20 µM |
| COc1cc(Cc2cnc(/N=C3\C(=O)N(CN4CCN(c5cc6c(cc5F)c(=O)c(C(=O)O)cn6C5CC5)CC4)c4ccc(F)cc43)nc2N)cc(OC)c1OC | - | >62.5 µg/mL |
| CC(C)c1ccc(NC(=O)N2CCC[C@H]2C(=O)N2CC[C@H]3[C@H]2[C@H](C)C(=O)N3C(=O)C2CC2)cc1 | - | 274 µM |
| Cn1c(NNc2nc(Nc3cccc(Cl)c3)nc(Nc3cccc(Cl)c3)n2)nc(-c2ccccc2)c(C#N)c1=O | - | 27 µg/mL |
| c1ccc(-c2ccc(CNc3ccccc3N3CCSCC3)cc2)cc1 | - | 8 µg/mL |
| CC(C)c1ccc(NC(=O)N2CCC[C@H]2C(=O)N2CC[C@H]3[C@H]2[C@H](C)C(=O)N3C(=O)c2nc3ccccc3s2)cc1 | - | >500 µM |
| CCn1cc(C(=O)O)c(=O)c2cc(F)c(N3CCN(CN4C(=O)/C(=N\c5ncc(Cc6cc(OC)c(OC)c(OC)c6)c(N)n5)c5cc(F)ccc54)CC3)cc21 | - | >10 µg/mL |
| c1ccc(-c2ccc(CNc3ccccc3-n3ccnc3)cc2)cc1 | - | 8 µg/mL |
| CCCCS(=O)(=O)Nc1ccc2[nH]c(C(=O)NC(C)CC)c(C)c2c1 | resazurin | 140 µM |
| CCOC(=O)c1cc(CNc2cccc(OC(F)(F)F)c2)on1 | - | >128 µM |
| COc1ccc2nc(Cl)c(/C=C/C(=O)c3ccc4ccccc4c3)cc2c1 | MTS | 52 µM |
| CCOC(=O)c1cc(-c2ccc(CO)cc2)on1 | - | >128 µM |
| COc1ccc2nc(Cl)c(/C=C/C(=O)c3ccc(C)o3)cc2c1 | MTS | 22.9 µM |
| CCOC(=O)c1cc(-c2cc(C(F)(F)F)cc(C(F)(F)F)c2)on1 | - | >128 µM |
| CCCCS(=O)(=O)Nc1ccc2[nH]c(C(=O)NCc3ccccc3)c(C)c2c1 | resazurin | >130 µM |
| COc1cc(Cc2cnc(/N=C3\C(=O)N(CN4CCN(c5cc6c(cc5F)c(=O)c(C(=O)O)cn6C5CC5)CC4)c4ccc(Cl)cc43)nc2N)cc(OC)c1OC | - | >10 µg/mL |
| CCCCS(=O)(=O)Nc1ccc2[nH]c(C(=O)NCC3CCC3)c(C)c2c1 | resazurin | >100 µM |
| Clc1ccc(CNc2ccc(-n3ccnc3)cc2)cc1 | - | 2 µg/mL |
| Cc1ccc2nc(Cl)c(/C=C/C(=O)c3ccc4ccccc4c3)cc2c1 | MTS | 35.8 µM |
| CCn1cc(C(=O)O)c(=O)c2cc(F)c(N3CCN(CN4C(=O)/C(=N\c5ncc(Cc6cc(OC)c(OC)c(OC)c6)c(N)n5)c5cc(Cl)ccc54)C(C)C3)c(F)c21 | - | >10 µg/mL |
| CSc1nsc(-c2ccccc2Cl)c1C#N | - | 5 µM |
| Cc1ccc(Nc2nc(NNc3nc(-c4ccccc4)c(C#N)c(=O)n3C)nc(Nc3ccc(C)cc3C)n2)c(C)c1 | - | 8 µg/mL |
| COc1cc(Cc2cnc(/N=C3\C(=O)N(CN4CCN(c5c(F)cc6c(=O)c(C(=O)O)cn(C7CC7)c6c5OC)CC4C)c4ccc(Cl)cc43)nc2N)cc(OC)c1OC | - | >10 µg/mL |
| CCCCS(=O)(=O)Nc1ccc2[nH]c(C(=O)NC3CCCCC3)c(C)c2c1 | resazurin | >130 µM |
| S=c1cc(-c2ccccc2)s[nH]1 | - | 90 µM |
| COc1ccc2nc(Cl)c(/C=C/C(=O)c3ccc[nH]3)cc2c1 | MTS | 16.4 µM |
| C[C@H]1C[C@H]2O[C@@H]2CC/C=C/C(=O)Cc2cc(O)cc(O)c2C(=O)O1 | - | 3 µM |
| C(=C\c1ccccc1)/CCNc1ccccc1N1CCSCC1 | - | 64 µg/mL |
| CCCCS(=O)(=O)Nc1ccc2[nH]c(Br)c(C)c2c1 | resazurin | 72 µM |
| Clc1ccc(CNc2cccc(N3CCOCC3)c2)cc1 | - | 16 µg/mL |
| COc1ccc2nc(Cl)c(/C=C/C(=O)c3cc(C)cs3)cc2c1 | MTS | 31.6 µM |
| CCCCS(=O)(=O)Nc1ccc2[nH]c(C(=O)NC3(c4ccccc4)CC3)c(C)c2c1 | resazurin | 59 µM |
| COc1cc(Cc2cnc(/N=C3\C(=O)N(CN4CCN(c5c(F)cc6c(=O)c(C(=O)O)cn(C7CC7)c6c5OC)CC4C)c4ccc(Br)cc43)nc2N)cc(OC)c1OC | - | >10 µg/mL |
| CN[C@@H]1[C@H](O[C@H]2[C@H](O[C@H]3[C@H](O)[C@@H](O)[C@H](N=C(N)N)[C@@H](O)[C@@H]3N=C(N)N)O[C@@H](C)[C@]2(O)C=O)O[C@@H](CO)[C@H](O)[C@H]1O | - | >64 µg/mL |
| COc1ccc2nc(Cl)c(/C=C/C(=O)c3cc(C)sc3C)cc2c1 | MTS | 8.9 µM |
| CC(C)c1ccc(NC(=O)N2CCC[C@H]2C(=O)N2CC[C@H]3[C@H]2[C@H](C)C(=O)N3C(=O)C2C(C)(C)C2(C)C)cc1 | - | 38 µM |
| c1ccc(-c2ccc(CNc3cccc(N4CCOCC4)c3)cc2)cc1 | - | 4 µg/mL |
| C[C@H]1C[C@H]2O[C@@H]2CC/C=C/C(=O)Cc2c(Cl)c(O)cc(O)c2C(=O)O1 | - | 16 µM |
| CCCCS(=O)(=O)Nc1ccc2[nH]c(C(=O)NC3CCCOC3)c(C)c2c1 | resazurin | 130 µM |
| C[C@H]1C[C@H]2O[C@@H]2CCCCC(=O)Cc2c(Cl)c(O)cc(O)c2C(=O)O1 | - | 18 µM |
| CCCCCCCCCCSc1ncnc2c1ncn2CC(=O)OC(C)(C)C | - | >10 µg/mL |
| Cc1c[nH]c2ccc([N+](=O)[O-])cc12 | resazurin | 140 µM |
| CSc1nsc(-c2cccc(Cl)c2)c1C#N | - | 10 µM |
| Cn1c(NNc2nc(Nc3cc(Cl)cc(Cl)c3)nc(Nc3cc(Cl)cc(Cl)c3)n2)nc(-c2ccccc2)c(C#N)c1=O | - | 13 µg/mL |
| CCCCS(=O)(=O)Nc1ccc2[nH]c(C(=O)NC3CCCC3)c(C)c2c1 | resazurin | >130 µM |
| CCOC(=O)c1cc(CN(C)c2ccc(OC(F)(F)F)cc2)on1 | - | >128 µM |

For reference, 5 entries again:

structure	read by	result
COc1ccc2nc(Cl)c(/C=C/C(=O)c3ccc4ccccc4c3)cc2c1	MTS	52 µM
CSc1nsc(-c2cccc3ccccc23)c1C#N	-	4 µM
Clc1ccc(CNc2ccc(-n3ccnc3)cc2)cc1	-	2 µg/mL
CCCCS(=O)(=O)Nc1ccc2[nH]c(Br)c(C)c2c1	resazurin	72 µM
CCOC(=O)c1cc(CN(C)c2ccc(OC(F)(F)F)cc2)on1	-	>128 µM